Measured values from several laboratories, pooled; numbers as filed in NIAID ChemDB.

Shared fields: growth or infection tests; organism: HIV-1; cells: HeLa; endpoint: EC50

Rows are shuffled and stem from different studies.

| structure | strain | changes | method | conditions | result |
|---|---|---|---|---|---|
| C=C[C@]1(CO)O[C@@H](n2cc(C)c(=O)[nH]c2=O)C[C@@H]1O | RTMDR | RT | β-galactosidase |  | 9.7 µM |
| CCn1nc(Cc2ccc(S(=O)(=O)c3ccccc3)cc2)cc1C1CCN(C[C@H]2CN([C@@H](C(=O)O)C(C)(C)C)C[C@@H]2c2cccc(F)c2)CC1 | BaL |  | β-galactosidase | 50% human serum | <0.0037 µM |
| C#C[C@]1(CO)O[C@@H](n2cnc3c(N)ncnc32)C[C@@H]1O |  | RT-K65R | β-galactosidase |  | 0.033 µM |
| Cc1cc(S(N)(=O)=O)ccc1NC(=O)COc1ccc(Cl)cc1C(=O)c1cc(C#N)cc(OC(F)(F)F)c1 |  | K103N |  |  | 0.0002 µM |
| CC[C@H](C)[C@H](C(=O)O)N1C[C@H](CN2CCC(c3cc(Cc4cccc(C#N)c4)nn3CC)CC2)[C@@H](c2cccc(F)c2)C1 | BaL |  | β-galactosidase | 50% human serum | <0.011 µM |
| Cc1ccc2ccc(C)c(-n3c(SCC(=O)Nc4ccc(S(N)(=O)=O)cc4Cl)nnc3C(F)(F)F)c2c1 |  | Y188L |  |  | 0.026 µM |
| N#Cc1cc2[nH]c3ccccc3c2n(-c2ccc([N+](=O)[O-])cc2)c1=O | Recombinant | RT-M41L V118I M184V | luciferase |  | 1.15 µM |
| C#C[C@]1(CO)O[C@@H](n2cc(C)c(=O)[nH]c2=O)C[C@@H]1O |  | RT-M184I | β-galactosidase |  | 0.14 µM |
| COc1cnc2c(-n3c(C)nnc3SCC(=O)Nc3ccc(S(N)(=O)=O)cc3Cl)cccc2c1 |  |  |  |  | 0.0008 µM |
| CC[C@@H](C)[C@H](C(=O)O)N1C[C@H](CN2CCC(c3cc(Cc4ccc(O)cc4)nn3CC)CC2)[C@@H](c2cccc(F)c2)C1 | BaL |  | β-galactosidase | 50% human serum | <0.011 µM |
| Nc1ccn([C@H]2C[C@H](O)[C@](CO)(CF)O2)c(=O)n1 | RTMDR | RT | β-galactosidase |  | 0.0039 µM |
| Cc1cc(OC[C@H]2CNCCO2)ccc1NC(=O)COc1ccc(Cl)cc1C(=O)c1cc(C#N)cc(OC(F)F)c1 |  | K103N |  |  | 0.0003 µM |
| O=c1[nH]cnc2c1ncn2[C@H]1CC[C@@H](CO)O1 | Recombinant | RT-V118I M184V | luciferase |  | 5.8 µM |
| Cc1cc(S(N)(=O)=O)ccc1NC(=O)COc1ccc(Cl)cc1C(=O)c1cc(Cl)cc(C#N)c1 |  | Y181C |  |  | 0.0007 µM |
| Cc1ccc(-n2c(C)nnc2SCC(=O)Nc2ccc(S(N)(=O)=O)cc2Cl)c2ccccc12 |  | Y188L |  |  | 0.02 µM |
| COC(=O)c1cc(C#N)cc(C(=O)c2cc(Cl)ccc2OCC(=O)Nc2ccc(S(N)(=O)=O)cc2C)c1 |  | V106A |  |  | 0.043 µM |
| Cc1ccc2c(C)ccnc2c1-n1c(C)nnc1SCC(=O)Nc1ccc(S(N)(=O)=O)cc1Cl |  | Y188L |  |  | 0.015 µM |
| Cn1c2ccccc2c2c1cc(C#N)c(=O)n2-c1ccc([N+](=O)[O-])cc1 | Recombinant | RT-A62T V118I M184V | luciferase |  | 0.428 µM |
| Cc1ccc(NC(=O)CSc2nnc(C(F)(F)F)n2-c2ccccc2)c(Br)c1 |  |  |  |  | 0.0005 µM |
| CCn1nc(Cc2ccc(C(F)(F)F)cc2)cc1C1CCN(C[C@H]2CN([C@@H](C(=O)O)C(C)C)C[C@@H]2c2cccc(F)c2)CC1 | BaL |  | β-galactosidase | 50% human serum | <0.1 µM |
| COc1ccc(-n2c(C)nnc2SCC(=O)Nc2ccc(S(N)(=O)=O)cc2Cl)c2ccccc12 |  | Y188L |  |  | 0.11 µM |
| CCn1nc(Cc2ccc(F)cc2F)cc1C1CCN(C[C@H]2CN([C@@H](C(=O)O)C3CCCCC3)C[C@@H]2c2cccc(F)c2)CC1 | BaL |  | β-galactosidase |  | <0.0004 µM |

A second listing of 2 rows from above:

structure	strain	changes	method	conditions	result
Nc1ccn([C@H]2C[C@H](O)[C@](CO)(CF)O2)c(=O)n1	RTMDR	RT	β-galactosidase		0.0039 µM
C=C[C@]1(CO)O[C@@H](n2cc(C)c(=O)[nH]c2=O)C[C@@H]1O	RTMDR	RT	β-galactosidase		9.7 µM

ECn is the concentration giving n% inhibition of infection, replication or growth. Blank or dashed fields: not listed here.